From PMC5015959, “The Binding of Plasmodium falciparum Adhesins and Erythrocyte Invasion Proteins to Aldolase Is Enhanced by Phosphorylation” (PLoS ONE, 2016) come the findings set out here.

Chains of the proteins cited; added tags and fusions are not shown.
UniProt Q7KQL9, whole entry: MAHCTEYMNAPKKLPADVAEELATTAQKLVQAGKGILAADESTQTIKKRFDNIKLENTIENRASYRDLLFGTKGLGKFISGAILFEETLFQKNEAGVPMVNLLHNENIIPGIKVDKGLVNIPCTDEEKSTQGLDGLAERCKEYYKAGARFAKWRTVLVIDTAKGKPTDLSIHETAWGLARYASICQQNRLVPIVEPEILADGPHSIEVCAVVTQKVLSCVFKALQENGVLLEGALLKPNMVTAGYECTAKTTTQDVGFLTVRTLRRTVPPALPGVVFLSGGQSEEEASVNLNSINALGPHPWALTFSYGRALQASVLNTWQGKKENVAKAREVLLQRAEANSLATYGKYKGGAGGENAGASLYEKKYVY

The match of structure and compound is tentative.

Broadly, the Kd is a measure of binding affinity in units of concentration. Read a low Kd as higher affinity.

This test deals with P. falciparum aldolase (Plasmodium falciparum, UniProt Q7KQL9). The following applies: unmodified or phosphorylated CTDs (phosphorylated synthetic peptides or peptides phosphorylated in vitro); Octet Red, 100 mM Tris-HCl pH 8.0, 25°C; mean of duplicate reactions.

Molecule `NS(=O)(=O)c1cc2c(cc1Cl)NC(C(Cl)Cl)NS2(=O)=O` (stereo not shown) registered a Kd of 2.5 µM.
